Pooled drug test results. Numbers come from NIAID ChemDB, via PubChem.

All rows: tests in culture; agent: Mycobacterium tuberculosis

Two numbers with a dash give a range or band.

smiles,setting,strain,cells,tested at,endpoint,read by,value
CNC(C)C1CC[C@@H](N)[C@@H](O[C@H]2[C@H](O)[C@@H](OC3OC[C@](C)(O)[C@H](NC)[C@H]3O)[C@H](N)C[C@@H]2N)O1,,MC2 6020,,,MIC,resazurin,4 µM
CC1(C)CCc2c(c3ccccc3c3nc(-c4cccc(C#N)c4)oc23)O1,,ATCC 27294,,,MIC,resazurin,35.2 µg/mL
CCOC(=O)c1ccc(NS(=O)(=O)c2ccc(NC3=CC(=O)c4ccccc4C3=O)cc2)cc1,,,,,MIC,,2 µg/mL
Clc1ccc(-n2cc(C3CC(c4ccc5c(c4)CCO5)=NN3)c(-c3cccs3)n2)cc1,,H37Rv,,,MIC,resazurin,25 µg/mL
S=c1oc(-c2ccncc2)nn1CN1CCOCC1,,H37Rv,,,MIC,,40 µg/mL
O=C(Oc1cc(Cl)ccc1C(=O)Nc1ccc(C(F)(F)F)cc1)c1cnccn1,14 d,multidrug resistant 234/2005,,,MIC,,0.5 µM
CC1CCN(Cn2nc(-c3ccncc3)oc2=O)CC1,,H37Rv,,,MIC,,2.5 µg/mL
O=C(N=Nc1c(O)[nH]c2ccccc12)c1cccnc1,,H37Rv,,,MIC50,resazurin,>50 µg/mL
COc1ccc2c(c1)[n+]([O-])c(-c1ccccc1)c(N)[n+]2[O-],,H37Rv,,,MIC,BACTEC,3.13 µg/mL
O=C(Oc1ccc(Cl)cc1C(=O)Nc1cccc(C(F)(F)F)c1)c1cnccn1,21 d,multidrug resistant 7357/1998,,,MIC,,1 µM
CCOC(=O)C1C(=O)N(C)C(=O)N1c1ccc(C)cc1,,H37Rv,,12.5 µg/mL,inhibition,BACTEC,0%
CCN(CC)CCOc1cc(Nc2cc(C3CC3)[nH]n2)nc(-c2ccccc2)n1,,H37Rv,,,MIC90,resazurin,16 µM
CN(C)C(=S)Oc1ccc(-c2c(-c3ccccc3)oc3ccc4ccccc4c23)cc1,,H37Rv,,12.5 µg/mL,inhibition,BACTEC,75%
CSc1ccc(C2=NN(C(C)=O)C(c3cn(-c4ccccc4)nc3-c3ccc(SC)cc3)C2)cc1,,H37Rv,,6.25 µg/mL,inhibition,BACTEC,18%
CC1CCN(Cn2nc(-c3ccncc3)oc2=S)CC1,,H37Rv,,,MIC,,20 µg/mL
CC(C)N=c1cc2n(-c3ccc(Cl)cc3)c3ccccc3nc-2cc1Nc1ccc(Cl)cc1,,BCG,,,MIC,,0.13 µg/mL
CO[C@H]1/C=C/O[C@@]2(C)Oc3c(C)c(O)c4c(O)c(c5c(c4c3C2=O)NC2(CCN(CC(C)C)CC2)N=5)=NC(=O)/C(C)=C\C=C\[C@H](C)[C@H](O)[C@@H](C)[C@@H](O)[C@@H](C)[C@H](OC(C)=O)[C@@H]1C,,H37Rv,,,MIC,,0.006 µg/mL
Nc1nc(F)cc2c1ncn2[C@@H]1O[C@H](CO)[C@@H](O)[C@H]1O,,H37Ra,,,MIC,,1–10 µg/mL
Cc1ccccc1-c1nc2c3c(c4ccccc4c2[nH]1)OC(C)(C)CC3,,ATCC 4.5,,,MIC,resazurin,4.5 µg/mL
Nc1nccc2c1ncn2[C@@H]1O[C@H](CO)[C@@H](O)[C@H]1O,,H37Ra,,,MIC,,>100 µg/mL
CC(C)(CNC(=O)C1CCC1)CNc1nc(Nc2cccc(CN3CCCC3)c2)ncc1Br,,H37Rv,,,MIC99,,5 µM
Cn1cc(C(=O)N=Nc2c(O)n(C)c3ccccc23)c2ccccc21,,H37Rv,,,MIC50,resazurin,25 µg/mL
O=c1[nH]nc2c3cccc4cccc(c5ccc(O)c1c52)c43,,H37Rv,,,MIC,BACTEC,3.13 µg/mL
Cc1ccc(C2=NNC(c3cn(-c4ccc(Cl)cc4)nc3-c3cccs3)C2)o1,,H37Rv,,,MIC,resazurin,50 µg/mL
CC(=O)Nc1ccc(/C=N/NC(N)=S)cc1,,RM22,,,MIC,,≤0.156 µg/mL
NNC(=O)c1ccncc1,,,,,MBC,,0.13 µg/mL
O=C(NN1C(=O)c2ccccc2C1=O)c1cc(O)cc(O)c1,,H37Rv,,,MIC50,resazurin,>50 µg/mL
Oc1ccc(/C=N/NC(=S)Nc2cccnc2)nc1,,H37Rv,,,MIC bound,resazurin,>6.25 µg/mL
Nc1ccc(C(=O)O)c(O)c1,14 d,H37Rv 331/88,,,MIC,,62.5 µM
N[C@@H]1CONC1=O,,BCG,,,MBC,,16 µg/mL
O=C(NNC(=O)c1ccc(Cl)cc1Cl)c1ccco1,,H37Rv,,12.5 µg/mL,inhibition,BACTEC,-4%
CC1COc2c(N3CCN(C)CC3)c(F)cc3c(=O)c(C(=O)O)cn1c23,,RM22,,,MIC,,1 µg/mL
CCCCCCCCCN1C(=O)CC(Nc2ccc(N3CCCCC3)cc2)C1=O,,H37Ra,,,MIC,,≤20 µg/mL
CC[n+]1c(-c2ccccc2)c2cc(N)ccc2c2ccc(N)cc21,,rif,,,MIC,PCR,>128 µg/mL
O=C(Oc1ccc(Br)cc1C(=O)Nc1ccc(C(F)(F)F)cc1)c1cnccn1,21 d,multidrug resistant Praha 1,,,MIC,,0.25 µM
Nc1ncc(Cl)c2c1ncn2[C@@H]1O[C@H](CO)[C@@H](O)[C@H]1O,,H37Ra,,,MIC,,>100 µg/mL
CC(=O)N1CCN(Cn2nc(-c3ccncc3)oc2=S)CC1,,H37Rv,,,MIC,,20 µg/mL
Cn1cc(NC(=O)c2cc(NC(=O)CCCCCCCCCC(=O)Nc3cc(C(=O)Nc4cc(C(=O)NCCC(N)=[NH2+])n(C)c4)n(C)c3)cn2C)cc1C(=O)NCCC(N)=[NH2+],,H37Rv,VERO,,MIC,BACTEC,6.25 µg/mL
O=C(N=Nc1c(O)[nH]c2ccccc12)c1cncc(Br)c1,,H37Ra,,,MIC50,resazurin,>50 µg/mL
CC(=O)NNc1nc(C)c(C(/C=C/c2ccc(Cl)cc2)=N/NC(=O)C[N+](C)(C)C)s1.[Cl-],,H37Rv,,12.5 µg/mL,inhibition,BACTEC,2%
CCCCCCCCCN1C(=O)CCCC1=O,,Clinical isolate (isoniazid-resistant),,,MIC,,≤20 µg/mL
CN(C)[C@@H]1CCN(c2cc(Nc3cc(C(F)(F)F)c(Br)cn3)nc(-c3ccccc3)n2)C1,,H37Rv,,,MIC99,,>20 µM
Cc1cc(C(=O)N=Nc2c(O)[nH]c3ccccc23)n[nH]1,,H37Ra,,,MIC50,resazurin,>50 µg/mL
COc1cccc(NC(=O)/C(Cc2nc3ccccc3nc2C)=N/NC(=O)C[n+]2ccccc2)c1.[Cl-],,H37Rv,,12.5 µg/mL,inhibition,BACTEC,4%
CCn1cc(C(=O)O)c(=O)c2cc(F)c(N3CCNC(C)C3)c(F)c21,,H37Rv,,,MIC,,2 µg/mL
O=C(Oc1ccc(Cl)cc1C(=O)Nc1ccc(Cl)c(Cl)c1)c1cnccn1,21 d,multidrug resistant 7357/1998,,,MIC,,0.25 µM
Nc1ccc(S(=O)(=O)Nc2ccc(C(=O)O)c(O)c2)cc1,,,,,MIC,,1.5 µg/mL
COC1/C=C\C=C(/C)C(=O)Nc2cc3nc4ccc(Br)cc4oc-3c(c2=O)CC(C)CC(OC)C(O)C(C)/C=C(\C)C1OC(N)=O,,H37Rv,,12.5 µg/mL,inhibition,BACTEC,99%
S=c1oc(-c2ccncc2)nn1CN1CCCCC1,,H37Rv,,,MIC,,40 µg/mL
C[N+]12C=CC=C1C(N1CCCC1)c1scc(-c3ccc(Br)cc3)c12.[I-],,H37Rv,,,MIC bound,BACTEC,>6.25 µg/mL
CCOC(=O)c1ccc(NS(=O)(=O)c2ccc(NC3=CC(=O)c4ccccc4C3=O)cc2)cc1O,,,,,MIC,,1.5 µg/mL
CSc1ccc(-c2nn(-c3ccccc3)cc2C2CC(c3ccc(C)cc3)=NN2C(C)=O)cc1,,H37Rv,,6.25 µg/mL,inhibition,BACTEC,86%
S=C1SCN(C(c2ccccc2)c2ccccc2)CN1C(c1ccccc1)c1ccccc1,,H37Rv,,12.5 µg/mL,inhibition,BACTEC,-27%
CSc1ccc(-c2nn(-c3ccccc3)cc2C2CC(c3cc(Br)c(O)c(Br)c3)=NN2)cc1,,H37Rv,,6.25 µg/mL,inhibition,BACTEC,55%
CC(C)[C@@H]1C2[C@H](O)[C@@H]3[C@@H](C)CC[C@@H]4[C@@H](C)C[C@@H]1[C@]34C(=O)C2(C)C,,H37Rv,,6.25 µg/mL,inhibition,,17%
Cc1cccc(C)c1N1C(=O)C2Nc3ccccc3SC2C1=O,,H37Rv,,12.8 µg/mL,inhibition,BACTEC,8%
NNC(=O)c1ccncc1,,H37Rv (ATCC 27294),,,MIC,,0.16 µg/mL
S=c1oc(-c2ccncc2)nn1CN1CCN(Cc2ccccc2)CC1,,H37Rv,,,MIC,,40 µg/mL
CC1=CC(=O)N(CC2CCC3CC2C3(C)C)C1=O,,H37Ra,,,MIC,,≤20 µg/mL
C=CCn1c(-c2cc(C(C)(C)C)c(O)c(C(C)(C)C)c2)cs/c1=N\C(P(=O)(O)O)P(=O)(O)O,,H37Rv,,6.25 µg/mL,inhibition,resazurin,-3%
C[C@@H]1CN(c2c(F)c(N)c3c(=O)c(C(=O)O)cn(C4CC4)c3c2F)C[C@H](C)N1,,H37Rv,,,MIC,,0.125 µg/mL
CN(C)[C@@H]1CCN(c2cc(Nc3cc(C4CC4)[nH]n3)nc(-c3ccccc3)n2)C1,,H37Rv,,,MIC90,resazurin,32 µM
CC(=O)NC[C@H]1CN(c2ccc(N3CCOCC3)c(F)c2)C(=O)O1,,H37Rv,,,MIC,,0.125 µg/mL
O=c1[nH][nH]c(=O)c2c1ncn2Cc1ccccc1,,H37Rv,,12.5 µg/mL,inhibition,BACTEC,0%
CC1CCCN(Cn2nc(-c3ccncc3)oc2=S)C1,,H37Rv,,,MIC,,10 µg/mL
CC[C@@H](CO)NCCN[C@@H](CC)CO,,L1901,,,MIC,,1 µg/mL
CCCCCCCCCN1C(=O)CC(SCCNC(=O)c2ccc(C(C)(C)C)cc2)C1=O,,Clinical isolate (isoniazid-resistant),,,MIC,,≤20 µg/mL
O=C1c2ccccc2C(=O)N1N=Cc1cccc(O)c1O,,H37Ra,,,MIC50,resazurin,>50 µg/mL
Clc1ccc(-n2cc(C3CC(c4ccc(-c5ccccc5)cc4)=NN3)c(-c3ccccc3)n2)cc1,,H37Rv,,,MIC,resazurin,50 µg/mL
CC(C)=CCC(OC(=O)CC(C)C)C1=CC(=O)c2c(O)ccc(O)c2C1=O,,H37Rv,,,MIC bound,BACTEC,≤12.5 µg/mL
Cc1ccc(-c2nn(-c3ccc(Cl)cc3)cc2C2CC(c3ccc(C)o3)=NN2)cc1,,H37Rv,,,MIC,resazurin,25 µg/mL
CCOc1ccccc1N(CCN(C)C)C(=O)C(c1ccccc1)c1ccccc1.Cl,,H37Rv,,,MIC,BACTEC,32 µg/mL
O=C(N=Nc1c(O)[nH]c2ccc(Br)cc12)c1cccs1,,H37Ra,,,MIC50,resazurin,>50 µg/mL
CN(C)[C@@H]1CCN(c2cc(Nc3ccc(C(F)(F)F)cn3)nc(-c3ccccc3)n2)C1,,H37Rv,,,MIC99,,>20 µM
CCc1cc(C(N)=S)ccn1,,RM22,,,MIC,,5 µg/mL
CSc1ccc(-c2nn(-c3ccccc3)cc2C2CC(c3ccc([N+](=O)[O-])cc3)=NN2)cc1,,H37Rv,,6.25 µg/mL,inhibition,BACTEC,0%
CN(C)c1ccc(C(c2c(O)c3ccc(O)cc3oc2=O)c2c(O)c3ccc(O)cc3oc2=O)cc1,,H37Rv,,,MIC bound,BACTEC,>12.5 µg/mL
NNC(=O)c1ccncc1,,8 strains (isoniazid- rifampin-resistant),,,MIC,,16 µg/mL
CSc1ccc(C2=NNC(c3cn(-c4ccccc4)nc3-c3ccc(SC)cc3)C2)cc1,,H37Rv,,6.25 µg/mL,inhibition,BACTEC,18%
NCC[C@H](O)C(=O)N[C@@H]1C[C@H](N)[C@@H](O[C@H]2O[C@H](CN)[C@@H](O)[C@H](O)[C@H]2O)[C@H](O)[C@H]1O[C@H]1O[C@H](CO)[C@@H](O)[C@H](N)[C@H]1O,,BCG,,,MBC,,0.25 µg/mL
O=c1oc(-c2ccncc2)nn1CN1CCC(Cc2ccccc2)CC1,,H37Rv,,,MIC,,2.5 µg/mL
O=C1NC(C2CCC3CN32)C(=O)NC1C1CCC2CN21,,H37Rv,,12.5 µg/mL,inhibition,BACTEC,1%
CSc1ccc(-c2nn(-c3ccccc3)cc2C2CC(c3cc(Br)c(O)c(Br)c3)=NN2C(C)=O)cc1,,H37Rv,,6.25 µg/mL,inhibition,BACTEC,11%
Nn1c(NNC(=O)C(=O)Nc2cc(Cl)c(Cl)cc2Cl)n[nH]c1=S,,H37Rv,,12.5 µg/mL,inhibition,BACTEC,-25%
O=C(NNS(=O)(=O)c1ccc(NC2=CC(=O)c3ccccc3C2=O)cc1)c1ccncc1,,,,,MIC,,0.03–0.12 µg/mL

Repeating the final 7 entries:

smiles	setting	strain	cells	tested at	endpoint	read by	value
CSc1ccc(C2=NNC(c3cn(-c4ccccc4)nc3-c3ccc(SC)cc3)C2)cc1		H37Rv		6.25 µg/mL	inhibition	BACTEC	18%
NCC[C@H](O)C(=O)N[C@@H]1C[C@H](N)[C@@H](O[C@H]2O[C@H](CN)[C@@H](O)[C@H](O)[C@H]2O)[C@H](O)[C@H]1O[C@H]1O[C@H](CO)[C@@H](O)[C@H](N)[C@H]1O		BCG			MBC		0.25 µg/mL
O=c1oc(-c2ccncc2)nn1CN1CCC(Cc2ccccc2)CC1		H37Rv			MIC		2.5 µg/mL
O=C1NC(C2CCC3CN32)C(=O)NC1C1CCC2CN21		H37Rv		12.5 µg/mL	inhibition	BACTEC	1%
CSc1ccc(-c2nn(-c3ccccc3)cc2C2CC(c3cc(Br)c(O)c(Br)c3)=NN2C(C)=O)cc1		H37Rv		6.25 µg/mL	inhibition	BACTEC	11%
Nn1c(NNC(=O)C(=O)Nc2cc(Cl)c(Cl)cc2Cl)n[nH]c1=S		H37Rv		12.5 µg/mL	inhibition	BACTEC	-25%
O=C(NNS(=O)(=O)c1ccc(NC2=CC(=O)c3ccccc3C2=O)cc1)c1ccncc1					MIC		0.03–0.12 µg/mL

Conditions beyond the fields shown may differ between rows. Percent inhibition refers to the dose given; in toxicity tests it is the harm to the cells. A number after MIC or MFC names an inhibition level or a share of isolates. An empty or dashed field is not shown. MIC bound comes from a single tested concentration.